Reference: paper PMC9104152, “Phosphoproteomics Unravel HBV Triggered Rewiring of Host Phosphosignaling Events” (International Journal of Molecular Sciences, 2022)

B1: Q8WTW3 1xPhospho [S/T] (protein, UniProt Q8WTW3 2-980, looked up)
Conserved oligomeric Golgi …: ATAATSPALKRLDLRDPAALFETHGAEEIRGLERQVRAEIEHKKEELRQMVGERYRDLIEAADTIGQMRRCAVGLVDAVKATDQYCARLRQAGSAAPRPPRAQQPQQPSQEKFYSMAAQIKLLLEIPEKIWSSMEASQCLHATQLYLLCCHLHSLLQLDSSSSRYSPVLSRFPILIRQVAAASHFRSTILHESKMLLKCQGVSDQAVAEALCSIMLLEESSPRQALTDFLLARKATIQKLLNQPHHGAGIKAQICSLVELLATTLKQAHALFYTLPEGLLPDPALPCGLLFSTLETITGQHPAGKGTGVLQEEMKLCSWFKHLPASIVEFQPTLRTLAHPISQEYLKDTLQKWIHMCNEDIKNGITNLLMYVKSMKGLAGIRDAMWELLTNESTNHSWDVLCRRLLEKPLLFWEDMMQQLFLDRLQTLTKEGFDSISSSSKELLVSALQELESSTSNSPSNKHIHFEYNMSLFLWSESPNDLPSDAAWVSVANRGQFASSGLSMKAQAISPCVQNFCSALDSKLKVKLDDLLAYLPSDDSSLPKDVSPTQAKSSAFDRYADAGTVQEMLRTQSVACIKHIVDCIRAELQSIEEGVQGQQDALNSAKLHSVLFMARLCQSLGELCPHLKQCILGKSESSEKPAREFRALRKQGKVKTQEIIPTQAKWQEVKEVLLQQSVMGYQVWSSAVVKVLIHGFTQSLLLDDAGSVLATATSWDELEIQEEAESGSSVTSKIRLPAQPSWYVQSFLFSLCQEINRVGGHALPKVTLQEMLKSCMVQVVAAYEKLSEEKQIKKEGAFPVTQNRALQLLYDLRYLNIVLTAKGDEVKSGRSKPDSRIEKVTDHLEALIDPFDLDVFTPHLNSNLHRLVQRTSVLFGLVTGTENQLAPRSSTFNSQEPHNILPLASSQIRFGLLPLSMTSTRKAKSTRNIETKAQVVPPARSTAGDPTVPGSLFRQLVSEEDNTSAPSLFKLGWLSSMTK
modifications: phospho
B2: Q8N1G2 2xPhospho [S51(96.1); S53(96.1)] (protein, UniProt Q8N1G2 1-835, looked up)
Cap-specific mRNA …: MKRRTDPECTAPIKKQKKRVAELALSLSSTSDDEPPSSVSHGAKASTTSLSGSDSETEGKQHSSDSFDDAFKADSLVEGTSSRYSMYNSVSQKLMAKMGFREGEGLGKYSQGRKDIVEASSQKGRRGLGLTLRGFDQELNVDWRDEPEPSACEQVSWFPECTTEIPDTQEMSDWMVVGKRKMIIEDETEFCGEELLHSVLQCKSVFDVLDGEEMRRARTRANPYEMIRGVFFLNRAAMKMANMDFVFDRMFTNPRDSYGKPLVKDREAELLYFADVCAGPGGFSEYVLWRKKWHAKGFGMTLKGPNDFKLEDFYSASSELFEPYYGEGGIDGDGDITRPENISAFRNFVLDNTDRKGVHFLMADGGFSVEGQENLQEILSKQLLLCQFLMALSIVRTGGHFICKTFDLFTPFSVGLVYLLYCCFERVCLFKPITSRPANSERYVVCKGLKVGIDDVRDYLFAVNIKLNQLRNTDSDVNLVVPLEVIKGDHEFTDYMIRSNESHCSLQIKALAKIHAFVQDTTLSEPRQAEIRKECLRLWGIPDQARVAPSSSDPKSKFFELIQGTEIDIFSYKPTLLTSKTLEKIRPVFDYRCMVSGSEQKFLIGLGKSQIYTWDGRQSDRWIKLDLKTELPRDTLLSVEIVHELKGEGKAQRKISAIHILDVLVLNGTDVREQHFNQRIQLAEKFVKAVSKPSRPDMNPIRVKEVYRLEEMEKIFVRLEMKIIKGSSGTPKLSYTGRDDRHFVPMGLYIVRTVNEPWTMGFSKSFKKKFFYNKKTKDSTFDLPADSIAPFHICYYGRLFWEWGDGIRVHDSQKPQDQDKLSKEDVLSFIQMHRA
modifications: phosphorylated S51, S53
B3: Q8N1G2 2xPhospho [S66(99.8); S] (protein, UniProt Q8N1G2 1-835, looked up)
Cap-specific mRNA …: B2 Cap-specific mRNA …
modifications: 2x phospho incl. S66

The molecules below were run on HepG2-NTCP cells (assay: TMT-based phosphoproteome profiling of HBV-infected vs mock HepG2-NTCP (HBV/mock ratio)). Settings: phosphosite abundance ratio of host protein, HBV-infected vs mock HepG2-NTCP, 7dpi, sheet Up-regulated.
Design: species or system human

Molecule | HBV/mock
B1 | 1.43
B2 | 1.356
B3 | 1.782
